Laboratory results taken from paper PMC10666276 (Biochemistry, 2023).

Tested on: NC(=O)c1ccc[n+]([C@@H]2O[C@H](COP(=O)(O)OP(=O)(O)OC[C@H]3O[C@@H](n4cnc5c4ncn4ccnc54)[C@H](O)[C@@H]3O)[C@@H](O)[C@H]2O)c1
Assay: purified protein
Details: 50 mM sodium acetate pH 5.5, 150 mM NaCl, 500 μM CaCl2, 25 °C, 10 ng enzyme

## AfNADase (Aspergillus fumigatus Af293; D219A/E220A)
  Km: 88.3 ± 12.2 µM
  Vmax: 2960 µmol/min/mg
